In patent publication US20130102493A1, “GENE EXPRESSION ANALYSES FOR CHARACTERIZING AND IDENTIFYING GENOTOXIC COMPOUNDS” (MERCK PATENT GESELLSCHAFT MIT BESCHRANKTER HAFTUNG, priority 2010, published 2013):

Key:
HepG2 cells [1] = tested on: HepG2 cells
HepG2 cells [2] = tested on: HepG2 cells; remark: listed apart in the source

aflatoxin B1 [AFB1]
regulation of the 91 genes (HepG2 cells [1]): did not change | Categorization (HepG2 cells [2]): non-genotoxic
